Measured data: PubChem BioAssay AID624099 (ICCB-Longwood, 2012)
In all, the deposit lists about 21,000 reagents; this is an unselected part. In the full data, 497 (2.4%) are marked active. 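Higher z means weaker E2 silencing; only reporter increases were scored, and knock-downs that hurt cell survival may mask genuine repressor factors.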 A number with no mark means an inactive call. Reagents against one gene are numbered here. Reagent sequences are not shown.

Screen: 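Knock-downs relieving repression by E2 of an HPV18 LCR luciferase reporter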 (primary screen)
Cell system: human C33A cervical carcinoma cells (HPV-negative) stably expressing BPV1 E2 and an HPV18 LCR luciferase reporter
Knock-down reagent: siRNA pool against human genes, 40 nM
Time to read-out: 72 h
Measurement: 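HPV18 LCR reporter light per well, converted to plate-wise z-scores that exclude control wells, and averaged over triplicate plates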
Reading the numbers: mean z-score and z-score: higher = stronger reporter signal, weaker E2 silencing
Call rule: 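Hit if mean z-score reaches 2 and two or more of three replicate z-scores also reach 2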

| target gene | pool no. | mean z-score | z-score, replicate A | z-score, replicate B | z-score, replicate C |
| --- | --- | --- | --- | --- | --- |
| LOC137829 (retired record) | 1 | -0.38 | -0.56 | -0.15 | -0.42 |
| PRAMEF12 | 1 | 1.23 | 1.75 | 0.62 | 1.34 |
| ZNF280A | 1 | -0.18 | -0.2 | -0.13 | -0.2 |
| CDH18 | 1 | -1.03 | -1.06 | -0.86 | -1.18 |
| ERO1B | 1 | -0.53 | -0.42 | -0.7 | -0.46 |
| KMT5A | 1 | -0.71 | -0.97 | -0.6 | -0.55 |
| GDF15 | 1 | -0.78 | -0.94 | -0.68 | -0.71 |
| SMIM24 | 1 | -0.36 | -0.17 | -0.48 | -0.44 |
| OR10H5 | 1 | -0.15 | -0.23 | 0 | -0.22 |
| TXLNA | 1 | -0.32 | -0.21 | -0.28 | -0.46 |
| GPR26 | 1 | 0.87 | 0.88 | 0.9 | 0.83 |
| TAS2R3 | 1 | 1.27 | 1.13 | 1.39 | 1.28 |
| OR10A4 | 1 | 0.12 | 0.05 | 0.37 | -0.06 |
| TTLL1 | 1 | -0.49 | -0.61 | -0.65 | -0.22 |
| ZNF254 | 1 | -0.38 | -0.32 | -0.44 | -0.39 |
| ZNF254 | 2 | 1.05 | 1.29 | 0.95 | 0.91 |
| LOC284009 | 1 | -0.33 | -1.17 | 0.1 | 0.07 |
| SLC13A2 | 1 | 0.17 | 0.3 | 0.25 | -0.05 |
| ERN1 | 1 | 0.79 | 0.91 | 0.67 | 0.77 |
| IL9 | 1 | -1.4 | -1.22 | -1.46 | -1.51 |
| LOC399763 (retired record) | 1 | -0.72 | -0.71 | -0.52 | -0.94 |
| ADAT1 | 1 | -0.41 | -0.68 | -0.4 | -0.15 |
| DCP2 | 1 | 0.94 | 1.31 | 0.46 | 1.06 |
| CSRNP1 | 1 | -0.4 | -0.25 | -0.56 | -0.38 |
| RPL10P17 | 1 | -0.79 | -0.84 | -0.67 | -0.84 |
| TMEM37 | 1 | 0.51 | 0.79 | 0.41 | 0.33 |
| KLF2 | 1 | -0.3 | -0.44 | -0.27 | -0.18 |
| RBM12B | 1 | 0.45 | 0.26 | 0.4 | 0.68 |
| LOC339162 (retired record) | 1 | -0.42 | -0.4 | -0.35 | -0.52 |
| BMS1 | 1 | -0.44 | -0.46 | -0.56 | -0.29 |
| FSCN2 | 1 | 0.05 | 0.25 | -0.13 | 0.04 |
| ATF5 | 1 | 0.14 | 0.12 | 0.08 | 0.22 |
| ALKBH7 | 1 | -0.33 | -0.54 | -0.16 | -0.29 |
| UBE2D4 | 1 | 0.56 | 0.59 | 0.38 | 0.72 |

9 neighbouring entries already listed, for reference:
| target gene | pool no. | mean z-score | z-score, replicate A | z-score, replicate B | z-score, replicate C |
| --- | --- | --- | --- | --- | --- |
| DCP2 | 1 | 0.94 | 1.31 | 0.46 | 1.06 |
| CSRNP1 | 1 | -0.4 | -0.25 | -0.56 | -0.38 |
| RPL10P17 | 1 | -0.79 | -0.84 | -0.67 | -0.84 |
| TMEM37 | 1 | 0.51 | 0.79 | 0.41 | 0.33 |
| KLF2 | 1 | -0.3 | -0.44 | -0.27 | -0.18 |
| RBM12B | 1 | 0.45 | 0.26 | 0.4 | 0.68 |
| LOC339162 (retired record) | 1 | -0.42 | -0.4 | -0.35 | -0.52 |
| BMS1 | 1 | -0.44 | -0.46 | -0.56 | -0.29 |
| FSCN2 | 1 | 0.05 | 0.25 | -0.13 | 0.04 |

The results go on.
| target gene | pool no. | mean z-score | z-score, replicate A | z-score, replicate B | z-score, replicate C |
| --- | --- | --- | --- | --- | --- |
| RBMY1E | 1 | -0.41 | -0.24 | -0.42 | -0.58 |
| WDR81 | 1 | -0.28 | -0.3 | -0.32 | -0.2 |
| LINC01498 | 1 | 0.09 | 0.02 | 0.09 | 0.17 |
| DEGS2 | 1 | 0.25 | 0.21 | 0.34 | 0.18 |
| GLT1D1 | 1 | -0.11 | 0.31 | -0.19 | -0.44 |
| PLCL1 | 1 | 1.42 | 0.81 | 1.78 | 1.67 |
| SPATS1 | 1 | 2.11 | 2.58 | 1.81 | 1.93 |
| H19 | 1 | 0 | 0 | -0.28 | 0.27 |
| BYSL | 1 | -1.27 | -1.56 | -1.17 | -1.08 |
| ZNF263 | 1 | -0.13 | -0.28 | -0.11 | -0.01 |
| HBZ | 1 | 0.38 | 0.43 | 0.2 | 0.49 |
| DPP10-AS1 | 1 | 1.6 | 1.48 | 1.63 | 1.68 |
| SDHA | 1 | 0.48 | 0.64 | 0.49 | 0.31 |
| BHMT2 | 1 | 0.92 | 0.88 | 1.18 | 0.7 |
| GRAPL | 1 | 0.05 | 0.35 | -0.28 | 0.06 |
| KEAP1 | 1 | -0.52 | -0.41 | -0.53 | -0.63 |
| ISYNA1 | 1 | -1.01 | -0.38 | -1.17 | -1.47 |
| JKAMP | 1 | -1.08 | -0.43 | -1.23 | -1.57 |
| GALNT13 | 1 | -0.36 | -0.64 | -0.14 | -0.3 |
| COPS5 | 1 | -0.78 | -0.79 | -0.87 | -0.7 |
| TRNT1 | 1 | 0.7 | 0.89 | 0.54 | 0.68 |
| HDAC5 | 1 | 1.27 | 1.16 | 1.28 | 1.38 |
| GPS1 | 1 | -0.86 | -0.88 | -0.87 | -0.82 |
